{"source": "PubChem BioAssay AID624099 (ICCB-Longwood, 2012)", "test": "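Knock-downs relieving repression by E2 of an HPV18 LCR luciferase reporter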 (primary screen)", "cell system": "human C33A cervical carcinoma cells (HPV-negative) stably expressing BPV1 E2 and an HPV18 LCR luciferase reporter", "knock-down reagent": "siRNA pool against human genes, 40 nM", "time to read-out": "72 h", "measured": "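HPV18 LCR reporter light per well, converted to plate-wise z-scores that exclude control wells, and averaged over triplicate plates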", "scale": "mean z-score and z-score: higher = stronger reporter signal, weaker E2 silencing", "active means": "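Mean z ≥ 2 together with z ≥ 2 in two or more of the three replicates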", "note": "In all, the deposit lists about 21,000 reagents; this is a random part of them. 497 of them (2.4%) were called active. 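Higher z means weaker E2 silencing; only reporter increases were scored, and knock-downs that hurt cell survival may mask genuine repressor factors.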 A number with no mark means an inactive call. The numbers tell different reagents against one gene apart."}
{"target": "LOC388938 (retired record) (GeneID 388938)", "pool no.": 1, "mean z-score": 0.55, "z-score, replicate A": 0.61, "z-score, replicate B": 0.83, "z-score, replicate C": 0.19}
{"target": "CNTD1 (GeneID 124817)", "pool no.": 1, "mean z-score": -1.49, "z-score, replicate A": -1.82, "z-score, replicate B": -1.1, "z-score, replicate C": -1.55}
{"target": "BRS3 (GeneID 680)", "pool no.": 1, "mean z-score": 1.2, "z-score, replicate A": 1.03, "z-score, replicate B": 1.26, "z-score, replicate C": 1.32}
{"target": "KCNIP3 (GeneID 30818)", "pool no.": 1, "mean z-score": -1.65, "z-score, replicate A": -1.57, "z-score, replicate B": -1.64, "z-score, replicate C": -1.74}
{"target": "MGST1 (GeneID 4257)", "pool no.": 1, "mean z-score": -0.27, "z-score, replicate A": -0.54, "z-score, replicate B": -0.02, "z-score, replicate C": -0.25}
{"target": "SDF2 (GeneID 6388)", "pool no.": 1, "mean z-score": 1.42, "z-score, replicate A": 1.18, "z-score, replicate B": 1.43, "z-score, replicate C": 1.66}
{"target": "TMEFF2 (GeneID 23671)", "pool no.": 1, "mean z-score": 1.12, "z-score, replicate A": 1.11, "z-score, replicate B": 1.15, "z-score, replicate C": 1.11}
{"target": "MED14 (GeneID 9282)", "pool no.": 1, "mean z-score": -2.6, "z-score, replicate A": -2.8, "z-score, replicate B": -2.59, "z-score, replicate C": -2.43}
{"target": "TAMALIN (GeneID 160622)", "pool no.": 1, "mean z-score": -0.26, "z-score, replicate A": 0.1, "z-score, replicate B": -0.4, "z-score, replicate C": -0.5}
{"target": "CHM (GeneID 1121)", "pool no.": 1, "mean z-score": -0.52, "z-score, replicate A": -0.51, "z-score, replicate B": -0.62, "z-score, replicate C": -0.44}
{"target": "CHM (GeneID 1121)", "pool no.": 2, "mean z-score": 1.1, "z-score, replicate A": 1.23, "z-score, replicate B": 0.88, "z-score, replicate C": 1.21}
{"target": "FHOD3 (GeneID 80206)", "pool no.": 1, "mean z-score": 0.36, "z-score, replicate A": 0.44, "z-score, replicate B": 0.78, "z-score, replicate C": -0.14}
{"target": "WIPI1 (GeneID 55062)", "pool no.": 1, "mean z-score": -0.34, "z-score, replicate A": -0.27, "z-score, replicate B": -0.53, "z-score, replicate C": -0.22}
{"target": "FRMD1 (GeneID 79981)", "pool no.": 1, "mean z-score": 0.43, "z-score, replicate A": 0.55, "z-score, replicate B": 0.86, "z-score, replicate C": -0.11}
{"target": "SCRIB (GeneID 23513)", "pool no.": 1, "mean z-score": 0.04, "z-score, replicate A": 0.01, "z-score, replicate B": 0.28, "z-score, replicate C": -0.18}
{"target": "MYO3A (GeneID 53904)", "pool no.": 1, "mean z-score": "2.15 (active)", "z-score, replicate A": 2.02, "z-score, replicate B": 2.11, "z-score, replicate C": 2.32}
{"target": "CTSH (GeneID 1512)", "pool no.": 1, "mean z-score": -0.22, "z-score, replicate A": -0.2, "z-score, replicate B": -0.54, "z-score, replicate C": 0.07}
{"target": "RNASE2 (GeneID 6036)", "pool no.": 1, "mean z-score": 0.91, "z-score, replicate A": 0.77, "z-score, replicate B": 1.04, "z-score, replicate C": 0.92}
{"target": "BAIAP2-DT (GeneID 440465)", "pool no.": 1, "mean z-score": -0.12, "z-score, replicate A": 0.08, "z-score, replicate B": -0.09, "z-score, replicate C": -0.35}
{"target": "PPM1K (GeneID 152926)", "pool no.": 1, "mean z-score": -0.52, "z-score, replicate A": -0.95, "z-score, replicate B": -0.6, "z-score, replicate C": -0.02}
{"target": "ADH1C (GeneID 126)", "pool no.": 1, "mean z-score": 1.18, "z-score, replicate A": 1.07, "z-score, replicate B": 1.39, "z-score, replicate C": 1.08}

Reagents above with an active call, once more:
{"target": "MYO3A (GeneID 53904)", "pool no.": 1, "mean z-score": "2.15 (active)", "z-score, replicate A": 2.02, "z-score, replicate B": 2.11, "z-score, replicate C": 2.32}
